Data source: PubChem BioAssay AID504761 (Drosophila RNAi Screening Center, 2011)
The screen tested about 22,000 reagents; this is a random part of those with a known target gene and a result. Over the whole deposit, 116 (0.52%) got an active call. 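Calls depend on retest data that are not deposited; infection was ranked per plate without normalising between plates; the unit of the infection score is not given.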 Raw values vary from plate to plate and are shown uncorrected. The numbers tell different reagents against one gene apart. Names joined by + are all predicted targets of the reagent. Not all columns of the deposit are shown. Not given: the amount of reagent, the time to read-out.

Screen: 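Genome-wide fly cell screen for genes dengue virus requires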 (primary screen)
Cell system: D.Mel-2 cells from Drosophila
Knock-down reagent: long dsRNA against Drosophila genes
Challenge: infection with dengue virus type 2; dose and infection time not stated
Measurement: 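Cells stained for dengue envelope protein and imaged; percent of infected cells per well on duplicate plates, ranked by infection, with stained nuclei counted for cell number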
Reading the numbers: infection score: higher = more virus-infected cells; cell count: higher = more cells in the well
Rule for the call: 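Low infection ranks in the two replicates (chance level up to 0.065) followed by a retest with a 1.5-fold or larger significant decrease, p below 0.05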
Calls: active = confirmed: knock-down lowers infection; inactive = not picked or not confirmed

gene	reagent no.	infection score, replicate 1	infection score, replicate 2	cell count, replicate 1	outcome
CG31245	1	2.05	7.35	6829	inactive
nyo (nyobe)	1		1.84	342	inactive
nyo (nyobe)	2	6.34	1.49	2825	inactive
CG13589	1	3.84	9.65	6098	inactive
CG13589	2	8.63	20.9	6395	inactive
CG7458	1	7.71	19.1	6421	inactive
CG7458	2	3.8	15.9	6283	inactive
CG16852	1	4.29	5.03	6741	inactive
brv2 (brivido-2)	1	6.36	21.3	6663	inactive
brv2 (brivido-2)	2	17.7	8.27	6252	inactive
CG3819	1	1.93	3.64	6596	inactive
CG3819	2	11.7	2.26	6110	inactive
salm (spalt major)	1	10.9	8.96	5899	inactive
salm (spalt major)	2	10.5	6.65	6192	inactive
PlexB (Plexin B)	1		6.63	288	inactive
CG12885	1	1.24	4.08	6778	inactive
CG12885	2	4.53	6.48	6563	inactive
B52	1	3.49	1.21	6330	inactive
B52	2	3.41	6.08	5508	inactive
Polr2C (RNA polymerase II subunit C)	1	54.7	52.8	3670	inactive
Polr2C (RNA polymerase II subunit C)	2	31	16.6	4048	inactive
TwdlR (TweedleR)	1			346	inactive
Camp (Cathelicidin-like antimicrobial protein)	1	13.9	7.42	6064	inactive
CG6236	1	16.4	11.7	6109	inactive
Hmu (Hemomucin)	1	1.81	11.5	883	inactive
Hmu (Hemomucin)	2	3.46	21.7	665	inactive
Nmdar1 (NMDA receptor 1)	1	5.65	7.8	6496	inactive
Nmdar1 (NMDA receptor 1)	2	16	3.07	5658	inactive
Nmdar1 (NMDA receptor 1)	3	2.41	8.68	5685	inactive
CG13226	1	8.3	9.59	6289	inactive
CG31036	1	2.35	3.6	5867	inactive
CG31036	2	3.43	3.68	6413	inactive
CAH14 (Carbonic anhydrase 14)	1	5.23	11.4	6802	inactive
CAH14 (Carbonic anhydrase 14)	2	7.78	10.8	4728	inactive
Pp2C1 (Protein phosphatase 2C)	1	3.02	7.94	6467	inactive
Pp2C1 (Protein phosphatase 2C)	2	21	12.7	5307	inactive
CG31926	1	2.5	5.21	6212	inactive
CG31926	2	12.8		5659	inactive
jtb (jetboil)	1	32.5	26.7	3733	inactive
CG10254	1	24.5	7.53	5070	inactive
CG10254	2			323	inactive
Cpr76Bd (Cuticular protein 76Bd)	1	11	7.81	6254	inactive
Su(z)12	1	1.7	3.33	6290	inactive
Su(z)12	2	4.56	3.57	6562	inactive
Ser8	1	5.64	4.95	975	inactive
Ser8	2	3.1	2.51	6516	inactive
SP2353	1	10.4	5	6081	inactive
SP2353	2	0.98	0.88	6225	inactive
CG9328	1	13.2	5.41	6504	inactive
CG13198	1	12.4	7.8	5488	inactive
casp (caspar)	1	12.9	21.6	5041	inactive
Glg1 (Golgi complex-localized glycoprotein 1)	1	1.79	14.7	6662	inactive
Glg1 (Golgi complex-localized glycoprotein 1)	2	10.8	12.5	5620	inactive
Glg1 (Golgi complex-localized glycoprotein 1)	3	4.62	9.27	5672	inactive
Eig71Ee (Ecdysone-induced gene 71Ee)	1	0.32	0.98	6013	inactive
RpL37-2 (Ribosomal protein L37-2)	1	13.5	19.1	6383	inactive
CG10969	1	0.21	1.2	6221	inactive
CG10969	2			301	inactive
cno (canoe)	1	1.76	1.31	6260	inactive
cno (canoe)	2	2.79	13.3	6664	inactive
cno (canoe)	3	3.14	1.09	6372	inactive
cno (canoe)	4	18.1	33.5	5754	inactive
CG7988	1	4.42	0.8	6545	inactive
CG32579	1	6.93	4.83	6712	inactive
CG31436	1	2.67	3.9	6181	inactive
CG31436	2	6.45	11.6	5723	inactive
TP53INP (Tumor protein p53 inducible nuclear protein)	1	2.1	5.67	6148	inactive
TP53INP (Tumor protein p53 inducible nuclear protein)	2	12.2	5.49	6966	inactive
TP53INP (Tumor protein p53 inducible nuclear protein)	3	7.23	6	6032	inactive
CG17681	1	20.2	4.48	5667	inactive
Ass (Argininosuccinate synthase)	1	16.8	13.5	5558	inactive
Lcp65Ag3 + Lcp65Ag2 + Lcp65Ag1	1	3.05	3.82	6123	inactive
Lcp65Ag3 + Lcp65Ag2 + Lcp65Ag1	2	2.03	4.13	5961	inactive
CG9416	1	0.62	1.29	6620	inactive
